Compound potency records, mixed from different reports. Data source: NIAID ChemDB in PubChem.

Shared fields: tests on isolated targets; agent: HIV; protein: Protease

Percent inhibition refers to the dose given; in toxicity tests it is the harm to the cells. An empty or dashed field is not shown. ICn: concentration for n% inhibition. a–b is a range or a potency band. Conditions beyond the fields shown may differ between rows. Fold resistance has wild type as its base.

smiles,mutations,read by,read-out,tested at,result
CC(C[C@H](NC(=O)COc1cccc2cnccc12)C(=O)N[C@@H](Cc1ccccc1)[C@H](O)C(=O)N1CSC[C@H]1C(=O)NC(C)(C)C)C(F)(F)F,,HPLC,IC50,,0.0063 µg/mL
CC(C)[C@H](NC(=O)c1ccc2ccccc2n1)C(=O)N[C@@H](Cc1ccccc1)[C@H](O)CN1CC[C@@H](SCc2cccnc2)C[C@H]1C(=O)NC(C)(C)C,PR-V32I A71V,fluorescence,Ki,,0.000045 µM
CC(C)(C)NC(=O)[C@@H]1CSCN1C(=O)[C@@H](O)[C@H](Cc1ccccc1)NC(=O)[C@H](CC(F)(F)F)NC(=O)COc1cccc2cnccc12,,HPLC,IC50,,0.0021 µg/mL
Cc1cc(SC2=C(O)C[C@@](CCc3ccc(O)cc3)(C(C)C)OC2=O)c(C(C)(C)C)cc1N,,HPLC,inhibition,10 µM,24.5%
Cc1cc(SC2=C(O)C[C@@](CCc3ccc(O)cc3)(C(C)C)OC2=O)c(C(C)(C)C)cc1N,PR-I84V,,fold resistance,,49
C=CCOC(=O)N[C@@](C=O)(CCN1CCC[C@H]1C(=O)OC)Cc1ccccc1,,FRET,IC50,,>1000 µM
Cc1cccc(C)c1OCC(=O)N[C@@H](Cc1ccccc1)[C@H](O)CN1CC[C@@H](Sc2ccncc2)C[C@H]1C(=O)NC(C)(C)C,PR-L10I L23I M46I I84V,fluorescence,Ki,,0.000197 µM
Cc1c(N)cccc1C(=O)N[C@@H](Cc1ccccc1)[C@H](O)CN(CC(C)C)S(=O)(=O)c1ccc2nc(N)sc2c1,,fluorescence,IC50,,0.003 µM
O=C1N(Cc2ccc(CO)cc2)[C@H](COc2ccccc2)[C@H](O)[C@@H](O)[C@@H](COc2ccccc2)N1Cc1ccc(CO)cc1,PR-I84V L90M,fluorescence,Ki,,0.00021 µM
CC(C)CN(C[C@@H](O)[C@H](Cc1ccccc1)NC(=O)OCc1cccnc1)S(=O)(=O)c1ccc2ncsc2c1,,fluorescence,IC50,,0.004 µM
CCC(Cc1ccccc1)c1cc(O)c(C(CC)c2ccccc2)c(=O)o1,,,IC50,,<10 µM
CC(C)CN(C[C@@H](O)[C@H](Cc1ccccc1)NC(=O)OCc1ccccc1)S(=O)(=O)c1ccc(N)cc1,,fluorescence,IC50,,0.012 µM
CNC(=O)[C@@H](NC(=O)[C@H](OCc1ccccc1)[C@H](O)[C@@H](O)[C@@H](OCc1ccccc1)C(=O)N[C@H]1c2ccccc2C[C@H]1O)C(C)C,PR-G48V,,Ki,,0.0003 µM
Cc1c(O)cccc1C(=O)N[C@@H](Cc1ccccc1)[C@H](O)CN(CC(C)C)S(=O)(=O)c1ccc2nc(N)sc2c1,,fluorescence,IC50,,0.002 µM
CC(C)C[C@H](NC(=O)C(Cc1ccccc1)C[C@H](O)[C@H](Cc1ccccc1)NC(=O)[C@H](Cc1ccccc1)NC(=O)[C@H](Cc1ccccc1)NC(=O)OC(C)(C)C)C(=O)N[C@@H](Cc1ccccc1)C(N)=O,,,inhibition,100 µM,0.1–100%
CCCCCCCCCCCCCCCC(=O)N[C@@H](Cc1ccc2ccccc2c1)C(=O)N[C@@H](CCC(=O)O)C(=O)N[C@@H](CC(C)C)C(=O)O,,,IC50,,12.5 µM
Cc1ccccc1C(=O)N[C@@H](Cc1ccccc1)[C@H](O)CN(CC(C)C)S(=O)(=O)c1ccc2nc(N)sc2c1,,fluorescence,IC50,,0.003 µM
COc1cccc(CN(CC(=O)NCCCC[C@@H](CO)N(CC(C)C)S(=O)(=O)c2ccc(N)cc2)c2ccccc2)c1OC,,,Ki,,0.0016 µM

Repeating the first 2 entries:

{"smiles": "CC(C[C@H](NC(=O)COc1cccc2cnccc12)C(=O)N[C@@H](Cc1ccccc1)[C@H](O)C(=O)N1CSC[C@H]1C(=O)NC(C)(C)C)C(F)(F)F", "read by": "HPLC", "read-out": "IC50", "result": "0.0063 µg/mL"}
{"smiles": "CC(C)[C@H](NC(=O)c1ccc2ccccc2n1)C(=O)N[C@@H](Cc1ccccc1)[C@H](O)CN1CC[C@@H](SCc2cccnc2)C[C@H]1C(=O)NC(C)(C)C", "mutations": "PR-V32I A71V", "read by": "fluorescence", "read-out": "Ki", "result": "0.000045 µM"}